In the supplement of paper PMC3578754:

Experiments:
tenofovir = compound: C[C@H](Cn1cnc2c(N)ncnc21)OCP(=O)(O)O [tenofovir]; experiment: fold change of IC50 against reference virus; higher = more resistant
Method: (§1)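 Cell-culture drug susceptibility tests of virus bearing the reverse transcriptase of each isolate, gathered from many studies.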

didanosine = compound: O=c1[nH]cnc2c1ncn2[C@H]1CC[C@@H](CO)O1 [didanosine]; experiment: as above
Method: as §1

abacavir = compound: Nc1nc(NC2CC2)c2ncn([C@H]3C=C[C@@H](CO)C3)c2n1 [abacavir]; experiment: as above
Method: as §1

stavudine = compound: Cc1cn([C@H]2C=C[C@@H](CO)O2)c(=O)[nH]c1=O [stavudine]; experiment: as above
Method: as §1

zidovudine = compound: Cc1cn([C@H]2C[C@H](N=[N+]=[N-])[C@@H](CO)O2)c(=O)[nH]c1=O [zidovudine]; experiment: as above
Method: as §1

nevirapine = compound: Cc1ccnc2c1NC(=O)c1cccnc1N2C1CC1 [nevirapine]; experiment: as above
Method: as §1

efavirenz = compound: O=C1Nc2ccc(Cl)cc2[C@@](C#CC2CC2)(C(F)(F)F)O1 [efavirenz]; experiment: as above
Method: as §1

delavirdine = compound: CC(C)Nc1cccnc1N1CCN(C(=O)c2cc3cc(NS(C)(=O)=O)ccc3[nH]2)CC1 [delavirdine]; experiment: as above
Method: as §1

saquinavir = compound: CC(C)(C)NC(=O)[C@@H]1C[C@@H]2CCCC[C@@H]2CN1C[C@@H](O)[C@H](Cc1ccccc1)NC(=O)[C@H](CC(N)=O)NC(=O)c1ccc2ccccc2n1 [saquinavir]; experiment: fold change of IC50 against reference virus; higher = more resistant; Cell-culture drug susceptibility tests of virus bearing the protease of each isolate, gathered from many studies.
ritonavir = compound: CC(C)c1nc(CN(C)C(=O)N[C@H](C(=O)N[C@@H](Cc2ccccc2)C[C@H](O)[C@H](Cc2ccccc2)NC(=O)OCc2cncs2)C(C)C)cs1 [ritonavir]; experiment: as above
tipranavir = compound: CCC[C@@]1(CCc2ccccc2)CC(O)=C([C@H](CC)c2cccc(NS(=O)(=O)c3ccc(C(F)(F)F)cn3)c2)C(=O)O1 [tipranavir]; experiment: as above
lopinavir = compound: Cc1cccc(C)c1OCC(=O)N[C@@H](Cc1ccccc1)[C@@H](O)C[C@H](Cc1ccccc1)NC(=O)[C@H](C(C)C)N1CCCNC1=O [lopinavir]; experiment: as above
indinavir = compound: CC(C)(C)NC(=O)[C@@H]1CN(Cc2cccnc2)CCN1C[C@@H](O)C[C@@H](Cc1ccccc1)C(=O)N[C@H]1c2ccccc2C[C@H]1O [indinavir]; experiment: as above
nelfinavir = compound: Cc1c(O)cccc1C(=O)N[C@@H](CSc1ccccc1)[C@H](O)CN1C[C@H]2CCCC[C@H]2C[C@H]1C(=O)NC(C)(C)C [nelfinavir]; experiment: as above
atazanavir = compound: COC(=O)N[C@H](C(=O)N[C@@H](Cc1ccccc1)[C@@H](O)CN(Cc1ccc(-c2ccccn2)cc1)NC(=O)[C@@H](NC(=O)OC)C(C)(C)C)C(C)(C)C [atazanavir]; experiment: as above

Test System | fold change of IC50 against reference virus (tenofovir) | fold change of IC50 against reference virus (saquinavir) | fold change of IC50 against reference virus (ritonavir) | fold change of IC50 against reference virus (tipranavir) | fold change of IC50 against reference virus (lopinavir) | fold change of IC50 against reference virus (indinavir) | fold change of IC50 against reference virus (nelfinavir) | fold change of IC50 against reference virus (atazanavir) | also measured
HIV-1 isolate 76 (reverse transcriptase changes: V148M I178V Q207G R211K F214L, study 22) | 28 | – | – | – | – | – | – | – | –
HIV-1 isolate 149 (reverse transcriptase changes: Q151M, study 79) | 1 | – | – | – | – | – | – | – | –
HIV-1 isolate 163 (reverse transcriptase changes: D67N K70R T215F K219Q, study 79) | 0.5 | – | – | – | – | – | – | – | –
HIV-1 isolate 274 (reverse transcriptase changes: T69D, study 79) | 0.7 | – | – | – | – | – | – | – | –
HIV-1 isolate 281 (reverse transcriptase changes: K65R S68G, study 75) | 1.9 | – | – | – | – | – | – | – | fold change of IC50 against reference virus (didanosine): 1.6; fold change of IC50 against reference virus (abacavir): 2.4; fold change of IC50 against reference virus (stavudine): 1.8; fold change of IC50 against reference virus (zidovudine): 0.6
HIV-1 isolate 300 (reverse transcriptase changes: L74V, study 79) | 1 | – | – | – | – | – | – | – | –
HIV-1 isolate 655 (reverse transcriptase changes: M184V, study 79) | 0.7 | – | – | – | – | – | – | – | –
HIV-1 isolate 718 (reverse transcriptase changes: K70E, study 31) | 1.2 | – | – | – | – | – | – | – | fold change of IC50 against reference virus (abacavir): 1.4
HIV-1 isolate 764 (reverse transcriptase changes: K122E Q151M F214L A272P K277R M357T A376T A400T N447S D460N S468T S519N, study 97) | 3.7 | – | – | – | – | – | – | – | fold change of IC50 against reference virus (nevirapine): 1.6; fold change of IC50 against reference virus (stavudine): 26.6; fold change of IC50 against reference virus (zidovudine): 87.5
HIV-1 isolate 847 (reverse transcriptase changes: T39A M41L E44D D67E S68G L74I V75M V108I V118I K122E I135T T165I M184V V189I G190A E203K Q207E L210W R211K T215Y K223Q V245K, study 95) | 1.5 | – | – | – | – | – | – | – | fold change of IC50 against reference virus (didanosine): 2.3; fold change of IC50 against reference virus (nevirapine): 196; fold change of IC50 against reference virus (efavirenz): 15; fold change of IC50 against reference virus (delavirdine): 0.2; fold change of IC50 against reference virus (stavudine): 3.1; fold change of IC50 against reference virus (zidovudine): 50
HIV-1 isolate 855 (reverse transcriptase changes: A62V K65R, study 75) | 1.8 | – | – | – | – | – | – | – | fold change of IC50 against reference virus (didanosine): 1.3; fold change of IC50 against reference virus (abacavir): 1.6; fold change of IC50 against reference virus (stavudine): 1.4; fold change of IC50 against reference virus (zidovudine): 0.5
HIV-1 isolate 876 (reverse transcriptase changes: none, study 79) | 1 | – | – | – | – | – | – | – | –
HIV-1 isolate 957 (reverse transcriptase changes: K65R K70E, study 31) | 2.3 | – | – | – | – | – | – | – | fold change of IC50 against reference virus (abacavir): 3.1
HIV-1 isolate 964 (reverse transcriptase changes: F77L F116Y Q151M, study 79) | 2.5 | – | – | – | – | – | – | – | –
HIV-1 isolate 1117 (reverse transcriptase changes: M41L L74V V106A T215Y, study 79) | 1 | – | – | – | – | – | – | – | –
HIV-1 isolate 1398 (reverse transcriptase changes: T215Y, study 79) | 0.7 | – | – | – | – | – | – | – | –
HIV-1 isolate 1470 (protease changes: L33F K45I R57G I84V, study 76) | – | 3 | 6 | 2 | 4 | 6 | 1 | 2 | –
HIV-1 isolate 1497 (protease changes: I15V M36I I64V V82L, study 64) | – | 0.7 | 3.3 | 1.4 | 0.6 | 0.6 | 0.8 | 1.2 | –

Test System | fold change of IC50 against reference virus (tenofovir) | fold change of IC50 against reference virus (saquinavir) | fold change of IC50 against reference virus (ritonavir) | fold change of IC50 against reference virus (tipranavir) | fold change of IC50 against reference virus (lopinavir) | fold change of IC50 against reference virus (indinavir) | fold change of IC50 against reference virus (nelfinavir) | fold change of IC50 against reference virus (atazanavir) | also measured
HIV-1 isolate 1499 (reverse transcriptase changes: T39A M41L K64R L74V K102Q V118I K122E I135T I142V K166R Q174R M184V T200A L210W F214L T215Y V245N, study 95) | 1.1 | – | – | – | – | – | – | – | fold change of IC50 against reference virus (didanosine): 2.9; fold change of IC50 against reference virus (nevirapine): 0.9; fold change of IC50 against reference virus (efavirenz): 0.4; fold change of IC50 against reference virus (delavirdine): 0.2; fold change of IC50 against reference virus (stavudine): 1.6
HIV-1 isolate 1524 (protease changes: V32I M46I I47V I62V L63P I72Y G73S V77I I93L, study 64) | – | 1 | 9.6 | 1.6 | 8.7 | 16 | 8 | 9 | –
HIV-1 isolate 1534 (protease changes: A22V E35D R41K I62V L63P K70R A71V L90M, study 15) | – | 3.2 | 4.2 | 1.9 | 1.8 | 4 | 8.5 | 3.3 | –
HIV-1 isolate 1543 (protease changes: L10F I13V V32I L33I M36I I54V L63P A71I I85V L90M, study 64) | – | 35 | 70 | 2 | 15 | 37 | 80 | 70 | –
HIV-1 isolate 1554 (protease changes: I13V I64V I72V, study 64) | – | 0.7 | 0.8 | 0.8 | 0.8 | 0.8 | 1.1 | 0.5 | –
HIV-1 isolate 1567 (reverse transcriptase changes: Y181C, study 79) | 0.1 | – | – | – | – | – | – | – | –
HIV-1 isolate 1574 (protease changes: M36I I62V L63P I93L, study 64) | – | 0.9 | 1.2 | 0.9 | 1.3 | 1.4 | 1.7 | 1.3 | –
HIV-1 isolate 1591 (reverse transcriptase changes: M41L E44D D67N A98G K101E V106I V108I V118I Y181C M184V G190A Q197E T200A E203D H208F L210W R211K T215Y K219N H221Y, study 95) | 1.4 | – | – | – | – | – | – | – | fold change of IC50 against reference virus (didanosine): 2.1; fold change of IC50 against reference virus (nevirapine): 178; fold change of IC50 against reference virus (efavirenz): 253; fold change of IC50 against reference virus (delavirdine): 38; fold change of IC50 against reference virus (stavudine): 3.7; fold change of IC50 against reference virus (zidovudine): 55
HIV-1 isolate 1595 (protease changes: K20R E35D M36I N37D F53L L63P H69K A71T I72V V77I V82A, study 15) | – | 0.4 | 7.5 | 0.3 | 1.6 | 1.2 | 1.6 | 1.1 | –
HIV-1 isolate 1603 (protease changes: L10I K20R E35D M36I N37D R41K M46I I54V I62V L63P V82A L90M I93L C95F, study 64) | – | 24 | ≥ 800 | 3.3 | 76 | 104 | 191 | 51 | –
HIV-1 isolate 1604 (reverse transcriptase changes: T39A M41L V106I I135T K173N Q174K V179E M184V Y188L T200A H208Y L210W R211K T215Y H221Y D237E V245Q, study 95) | 1.3 | – | – | – | – | – | – | – | fold change of IC50 against reference virus (didanosine): 1.7; fold change of IC50 against reference virus (nevirapine): 263; fold change of IC50 against reference virus (efavirenz): 306; fold change of IC50 against reference virus (delavirdine): 58; fold change of IC50 against reference virus (stavudine): 2.2; fold change of IC50 against reference virus (zidovudine): 9.7
HIV-1 isolate 1607 (protease changes: T12P K14R L63P G68E A71T, study 64) | – | 1.6 | 1 | 0.9 | 1.1 | 1.1 | 0.9 | 0.8 | –
HIV-1 isolate 1608 (protease changes: I15V M36I I72V, study 64) | – | 1 | 1.5 | 1.2 | 1.1 | 0.8 | 1.3 | 1 | –
HIV-1 isolate 1613 (protease changes: L10V I13V K20R V32I E35D M36I K43T M46I I47V F53L I62V L63P A71L I72V V77Q V82C I84V I93L, study 64) | – | 32 | ≥ 800 | ≥ 800 | 58 | 4.4 | 19 | 59 | –
HIV-1 isolate 1614 (protease changes: L10I E35D K43T I54M D60E I62V L63P I72V V82M L90M I93L, study 64) | – | 2 | 17 | 3 | 5.9 | 8.6 | 13 | 13 | –
HIV-1 isolate 1631 (protease changes: L10I I13V L19V K20T M46I I54V I62V L63P A71V I72L G73S V82T L90M, study 64) | – | 18 | 61 | 3.2 | 39 | 30 | 71 | 24 | –
HIV-1 isolate 1638 (reverse transcriptase changes: K65R, study 79) | 5 | – | – | – | – | – | – | – | –

Fold change is the IC50 on the isolate divided by the IC50 on a reference virus; 1 = unchanged, higher = more resistant. Changes are given against the subtype B consensus. No active / inactive call. The values were gathered from many studies (numbered anew) with different assays, which the source does not name. Most viruses are clinical isolates; some are laboratory strains or clones with known resistance changes. Isolates with mixed residues are left out; stretches that were not sequenced show no change. Round top values that many isolates share are read here as limits; other very high values and 0.1 may be limits too. For some assays here: The protease changes I3V and N37S, insertions and deletions cannot be read from the source.
